{"source": "patent US12029716B2", "about": "“Derivatives of korormicin useful as antibiotics” (Viotika Life Sciences Inc., priority 2015, dated 2024)", "system": "Chlamydia trachomatis", "assay": "C. trachomatis infection of HeLa cells (chlamydial inclusions, immunocytochemistry)", "assay_type": "cell-based", "protocol": "Chlamydia trachomatis (C. trachomatis) propagation and treatment were carried out as follows. C. trachomatis was propagated in HeLa cells. The titer of C. trachomatis was determined in cyclohexamide-treated HeLa cells, and concentrations used were expressed as inclusion forming units (IFU) per mL.\nAssessment of the level of infection was determined as follows. HeLa cells were seeded on glass coverslips in 24-well plates at 3×10^4 cells/well and inoculated with C. trachomatis and then treated with antibiotic (or other compounds of interest). After 48 hours, the infected cells were fixed with 100% methanol and then incubated with anti-Chlamydia monoclonal antibody. Inclusion bodies were visualized by staining with FITC-conjugated secondary antibody and DAPI as counterstaining. The samples were examined by a fluorescence microscopy. Number of inclusions was calculated per 100 cells.\nAssessment of antichlamydial activity of Korormicin (Scheme shown in FIG. 1) and PEG-2 (Scheme shown in FIG. 2) were performed as follows. Cells were infected with C. trachomatis and treated with different concentrations of antibiotic of choice. After 48 h of C. trachomatis was collected (P1) and used to infect fresh cells. Subsequent collections of C. trachomatis were used to obtain P2, P3, P4 and P5 stocks of C. trachomatis. […]"}
{"smiles": "CCCCCCC/C=C/C=C\\[C@H](O)CC(=O)NC1=C[C@](C)(CC)OC1=O", "note": "[PEG-2]", "values": [{"measurement": "effectiveness as antichlamydial agent relative to native korormicin", "value": "~1,000 times"}, {"measurement": "anti-chlamydial effect in excess of that of korormicin", "setting": "5 consecutive treatments, 15 μM", "value": "at least 2 orders of magnitude"}]}
